Measured values taken from patent publication US11584744B2 (UNIVERSITY OF WASHINGTON, priority 2017, dated 2023).

Test system: S. aureus (ATCC 29213)
Conditions: 8× the MIC

## CC(=O)NC[C@H]1CN(c2ccc(N3CCOCC3)c(F)c2)C(=O)O1 [LNZ, linezolid]
72 h
  Resistance frequency (Expt. 1): <2.63 × 10^−10
  Resistance frequency (Expt. 2): <1.81 × 10^−10
Two independent experiments
  Resistance frequency (average or greater #): <2.63 × 10^−10
